Pooled drug test results. Numbers come from NIAID ChemDB, via PubChem.

Common to all: whole-cell or culture tests; species: HIV-1; cell line: MT-2; read-out: EC50

Two numbers with a dash give a range or band. An empty or dashed field is not shown. Conditions beyond the fields shown may differ between rows. ECn: concentration that inhibits the pathogen or its effect by n%.

structure | strain or isolate | read by | setting | value
Cc1ncc(-c2cnc(OCCc3ccccn3)c(F)c2)c(N2CCC(C)(C)CC2)c1[C@H](OC(C)(C)C)C(=O)O | NL4-3 | luminescence |  | 0.0006 µM
CC(C)C1=C2C3CCC4[C@@]5(C)CC[C@H](OC(=O)CC(C)(C)C(=O)O)C(C)(C)C5CC[C@@]4(C)[C@]3(C)CC[C@@]2(NC(=O)NC2CCCCC2)CC1=O | IIIB | RT activity | 30% human serum | <0.199 µM
[2H]C(CN)(CNCC[C@@]12CC[C@]3(C)[C@H](CC[C@@H]4[C@@]5(C)CC[C@H](OC(=O)[C@H]6C[C@@H](C(=O)O)C6(C)C)C(C)(C)[C@@H]5CC[C@]43C)C1=C(C(C)C)C(=O)C2)NC(=O)c1ccc(Cl)cc1 | 92HT599 | p24 / ELISA |  | <1 µM
Cc1nnc(C(=O)N2CCC3(C2)OCCn2c3nc(C(=O)NCc3ccc(F)cc3)c(O)c2=O)o1 | NL4-3 | luciferase / reporter gene |  | 0.01–0.1 µM
CC(C)C1=C2[C@H]3CC[C@@H]4[C@@]5(C)CC[C@H](OC(=O)CC(C)(C)C(=O)O)C(C)(C)[C@@H]5CC[C@@]4(C)[C@]3(C)CC[C@@]2(NC(=O)NC[C@@H]2CCCN2C(=O)OC(C)(C)C)CC1=O | IIIB | RT activity | 30% human serum | <0.199 µM
CCC(=O)C(=O)N1CCC2(CC1)OCCn1c2nc(C(=O)NCc2ccc(F)cc2)c(O)c1=O | NL4-3 | luciferase / reporter gene |  | 0.001–0.01 µM
CC(C)C1=C2[C@H]3CC[C@@H]4[C@@]5(C)CC[C@H](OC(=O)[C@H]6C[C@@H](C(=O)O)C6(C)C)C(C)(C)[C@@H]5CC[C@@]4(C)[C@]3(C)CC[C@@]2([C@@H](O)CNCc2ccccc2Cl)CC1=O | 92HT599 | p24 / ELISA |  | <1 µM
Cc1ccc(OCCOc2ccc(-c3cnc(C)c([C@H](OC(C)(C)C)C(=O)O)c3N3CCC(C)(C)CC3)nc2)c(Cl)c1 | NL4-3 | luminescence |  | 0.0004 µM
CC(C)C1=C2C3CCC4[C@@]5(C)CC[C@H](OC(=O)CC(C)(C)C(=O)O)C(C)(C)C5CC[C@@]4(C)[C@]3(C)CC[C@@]2(NC(=O)NCC2CCN(C)CC2)CC1=O | IIIB | RT activity | 30% human serum | 0.2–0.999 µM
Cc1cncc(C(=O)NC(C)(C)CNCC[C@@]23CC[C@]4(C)[C@H](CC[C@@H]5[C@@]6(C)CC[C@H](OC(=O)[C@H]7C[C@@H](C(=O)O)C7(C)C)C(C)(C)[C@@H]6CC[C@]54C)C2=C(C(C)C)C(=O)C3)n1 | 92HT599 | p24 / ELISA |  | <1 µM
CC(C)C1=C2C3CCC4[C@@]5(C)CC[C@H](OC(=O)CC(C)(C)C(=O)O)C(C)(C)C5CC[C@@]4(C)[C@]3(C)CC[C@@]2(NC(=O)NCc2ccncn2)CC1=O | IIIB | RT activity | 30% human serum | <0.199 µM
Cc1ncnn1-c1cc(F)ccc1CNC(=O)c1nc2n(c(=O)c1O)CCCOC21CCN(C(=O)N(C)C)CC1 | NL4-3 | luciferase / reporter gene |  | 0.001–0.01 µM
COc1cc(F)ccc1OCCN(C)c1ccc(-c2cnc(C)c([C@H](OC(C)(C)C)C(=O)O)c2N2CCC(C)(C)CC2)cn1 | NL4-3 | luminescence |  | 0.0008 µM
CC(C)C1=C2[C@H]3CC[C@@H]4[C@@]5(C)CC[C@H](OC(=O)[C@H]6C[C@@H](C(=O)O)C6(C)C)C(C)(C)[C@@H]5CC[C@@]4(C)[C@]3(C)CC[C@@]2(CC(=O)NCC(C)(C)NC(=O)c2nccn2C)CC1=O | 92HT599 | p24 / ELISA |  | <1 µM
CC(C)C1=C2[C@H]3CC[C@@H]4[C@@]5(C)CC[C@H](OC(=O)CC(C)(C)C(=O)O)C(C)(C)[C@@H]5CC[C@@]4(C)[C@]3(C)CC[C@@]2(NC2CCN(C(=O)OC(C)(C)C)CC2)CC1=O | IIIB | RT activity | 30% human serum | <0.199 µM
COC(=O)C(=O)N1CCC2(CC1)OCCn1c2nc(C(=O)NCc2ccc(F)cc2-n2ncnc2C)c(O)c1=O | NL4-3 | luciferase / reporter gene |  | 0.01–0.1 µM
CC(C)C1=C2[C@H]3CC[C@@H]4[C@@]5(C)CC[C@H](OC(=O)CC(C)(C)C(=O)O)C(C)(C)[C@@H]5CC[C@@]4(C)[C@]3(C)CC[C@@]2(NC(=O)NC[C@@H]2CCCN2)CC1=O | IIIB | RT activity | 30% human serum | <0.199 µM
Cc1ncc(-c2ccc(OCCC(C)(C)O)cn2)c(N2CCC(C)(C)CC2)c1[C@H](OC(C)(C)C)C(=O)O | NL4-3 | luminescence |  | 0.0481 µM
CC(C)C1=C2C3CCC4[C@@]5(C)CC[C@H](OC(=O)CC(C)(C)C(=O)O)C(C)(C)C5CC[C@@]4(C)[C@]3(C)CC[C@@]2(NC(=O)C(C)N(C)C)CC1=O | IIIB | RT activity | 30% human serum | <0.199 µM
Cc1nc(C)c(C(=O)NC(C)(C)CNC(=O)C[C@@]23CC[C@]4(C)[C@H](CC[C@@H]5[C@@]6(C)CC[C@H](OC(=O)[C@H]7C[C@@H](C(=O)O)C7(C)C)C(C)(C)[C@@H]6CC[C@]54C)C2=C(C(C)C)C(=O)C3)s1 | 92HT599 | p24 / ELISA |  | <1 µM
Cc1ncnn1-c1cc(F)ccc1CNC(=O)c1nc2n(c(=O)c1O)CCCOC21CCN(S(=O)(=O)N(C)C)CC1 | NL4-3 | luciferase / reporter gene |  | 0.001–0.01 µM
CC(C)C1=C2[C@H]3CC[C@@H]4[C@@]5(C)CC[C@H](OC(=O)[C@H]6C[C@@H](C(=O)O)C6(C)C)C(C)(C)[C@@H]5CC[C@@]4(C)[C@]3(C)CC[C@@]2([C@@H](O)CNCC(C)(C)NC(=O)CN2CCS(=O)(=O)CC2)CC1=O | 92HT599 | p24 / ELISA |  | <1 µM
CC(C)C1=C2C3CCC4[C@@]5(C)CC[C@H](OC(=O)CC(C)(C)C(=O)O)C(C)(C)C5CC[C@@]4(C)[C@]3(C)CC[C@@]2(NC(=O)c2cscn2)CC1=O | IIIB | RT activity | 30% human serum | <0.199 µM
Cc1ncc(-c2ccc(NCCOc3ccc(Cl)cc3)cn2)c(N2CCC(C)(C)CC2)c1[C@H](OC(C)(C)C)C(=O)O | NL4-3 | luminescence |  | 0.004 µM
CC(C)C1=C2C3CCC4[C@@]5(C)CC[C@H](OC(=O)CC(C)(C)C(=O)O)C(C)(C)C5CC[C@@]4(C)[C@]3(C)CC[C@@]2(NC(=O)OCCC2CC2)CC1=O | IIIB | RT activity | 30% human serum | <0.199 µM
CC(C)C1=C2[C@H]3CC[C@@H]4[C@@]5(C)CC[C@H](OC(=O)[C@H]6C[C@@H](C(=O)O)C6(C)C)C(C)(C)[C@@H]5CC[C@@]4(C)[C@]3(C)CC[C@@]2(CC(=O)NCc2ncc[nH]2)CC1=O | 92HT599 | p24 / ELISA |  | <1 µM
Cc1ncc(-c2ccc(OC[C@@H](C)Oc3ccccc3)cn2)c(N2CCC(C)(C)CC2)c1[C@H](OC(C)(C)C)C(=O)O | NL4-3 | luminescence |  | 0.0019 µM

For reference, 2 entries again:

structure	strain or isolate	read by	setting	value
CC(C)C1=C2C3CCC4[C@@]5(C)CC[C@H](OC(=O)CC(C)(C)C(=O)O)C(C)(C)C5CC[C@@]4(C)[C@]3(C)CC[C@@]2(NC(=O)NCc2ccncn2)CC1=O	IIIB	RT activity	30% human serum	<0.199 µM
COC(=O)C(=O)N1CCC2(CC1)OCCn1c2nc(C(=O)NCc2ccc(F)cc2-n2ncnc2C)c(O)c1=O	NL4-3	luciferase / reporter gene		0.01–0.1 µM